According to patent US10786484B2, “Mono- or di-substituted indole derivatives as dengue viral replication inhibitors” (Janssen Pharmaceuticals, Inc., priority 2015, dated 2020):

Each molecule was assayed on DENV-2 16681 strain labeled with eGFP (assay: DENV-2 antiviral assay (eGFP fluorescence read-out in Vero cells)). Settings: SI=CC50/EC50, DENV-2 antiviral assay.
Format: cell-based, Dengue virus
Protocol: The antiviral activity of all the compounds of the invention was tested against the DENV-2 16681 strain which was labeled with enhanced green fluorescent protein (eGPF). The culture medium consists of minimal essential medium supplemented with 2% of heat-inactivated fetal calf serum, 0.04% gentamycin (50 mg/mL) and 2 mM of L-glutamine. Vero cells, obtained from ECACC, were suspended in culture medium and 25 μL was added to 384-well plates (2500 cells/well), which already contain the antiviral compounds. Typically, these plates contain a 5-fold serial dilution of 9 dilution steps of the test compound at 200 times the final concentration in 100% DMSO (200 nL). […] Finally, each plate contains wells which are assigned as virus controls (containing cells and virus in the absence of compound), cell controls (containing cells in the absence of virus and compound) and medium controls (containing medium in the absence of cells, virus and compounds). To the wells assigned as medium control, 25 μL of culture medium was added instead of Vero cells. Once the cells were added to the plates, the plates were incubated for 30 minutes at room temperature to allow the cells to distribute evenly within the wells. Next, the plates were incubated in a fully humidified incubator (37° C., 5% CO2) until the next day. Then, DENV-2 strain 16681, labeled with eGFP, was added at a multiplicity of infection (MOI) of 0.5. Therefore, 15 μL of virus suspension was added to all the wells containing test compound and to the wells assigned as virus control. In parallel, 15 μL of culture medium was added to the medium and cell controls. Next, the plates were incubated for 3 days in a fully humidified incubator (37° C., 5% CO2). At the day of the read out, the eGFP fluorescence was measured using an automated fluorescence microscope at 488 nm (blue laser). Using an in-house LIMS system, inhibition dose response curves for each compound were calculated and the half maximal effective concentration (EC50) was determined. Therefore, the percent inhibition (I) for every test concentration is calculated using the following formula: I=100*([…])/(SVC−SCC); ST, SCC and SVC are the amount of eGFP signal in the test compound, cell control and virus control wells, respectively. The EC50 represents the concentration of a compound at which the virus replication is inhibited with 50%, as measured by a 50% reduction of the eGFP fluorescent intensity compared to the virus control. The EC50 is calculated using linear interpolation (Table 1).
For `COc1cc(NC(C(=O)c2c[nH]c3cc(F)ccc23)c2ccc(F)cc2OCCO)cc(S(C)(=O)=O)c1` (racemic) [Compound 1, 1-(6-fluoro-1H-indol-3-yl)-2-(4-fluoro-2-(2-hydroxyethoxy)phenyl)-2-((3-methoxy-5-(methylsulfonyl)phenyl)amino)ethanone], the SI was 3520.
Work on `COc1cc(NC(C(=O)c2c[nH]c3cc(Cl)ccc23)c2ccc(F)cc2OCCO)cc(S(C)(=O)=O)c1` (racemic) [Compound 2, 1-(6-chloro-1H-indol-3-yl)-2-(4-fluoro-2-(2-hydroxyethoxy)phenyl)-2-((3-methoxy-5-(methylsulfonyl)phenyl)amino)-ethanone] yielded an SI of 7600.
With `COc1cc(NC(C(=O)c2c[nH]c3c(C)c(F)ccc23)c2ccc(F)cc2OCCO)cc(S(C)(=O)=O)c1` (racemic) [Compound 3, 2-(4-fluoro-2-(2-hydroxyethoxy)phenyl)-1-(6-fluoro-7-methyl-1H-indol-3-yl)-2-((3-methoxy-5-(methylsulfonyl)phenyl)amino)ethanone] the SI was 4360.
For `COc1cc(NC(C(=O)c2c[nH]c3c(C)c(Cl)ccc23)c2ccc(F)cc2OCCO)cc(S(C)(=O)=O)c1` (racemic) [Compound 4, 1-(6-chloro-7-methyl-1H-indol-3-yl)-2-(4-fluoro-2-(2-hydroxyethoxy)phenyl)-2-((3-methoxy-5-(methylsulfonyl)phenyl)amino)ethanone], the SI was 8960.
Molecule `COc1cc(NC(C(=O)c2c[nH]c3cc(F)c(F)cc23)c2ccc(F)cc2OCCO)cc(S(C)(=O)=O)c1` (racemic) [Compound 5, 1-(5,6-difluoro-1H-indol-3-yl)-2-(4-fluoro-2-(2-hydroxyethoxy)phenyl)-2-((3-methoxy-5-(methylsulfonyl)phenyl)-amino)ethanone] has an SI of 6760.
With `COc1cc(NC(C(=O)c2c[nH]c3cc(OC)c(C)cc23)c2ccc(F)cc2OCCO)cc(S(C)(=O)=O)c1` (racemic) [Compound 6, 2-(4-fluoro-2-(2-hydroxyethoxy)phenyl)-2-((3-methoxy-5-(methylsulfonyl)phenyl)amino)-1-(6-methoxy-5-methyl-1H-indol-3-yl)ethanone] the SI was 4220.
In the case of `COc1cc(NC(C(=O)c2c[nH]c3c(F)cc(C)cc23)c2ccc(F)cc2OCCO)cc(S(C)(=O)=O)c1` (racemic) [Compound 8, 2-(4-fluoro-2-(2-hydroxyethoxy)phenyl)-1-(7-fluoro-5-methyl-1H-indol-3-yl)-2-((3-methoxy-5-(methylsulfonyl)phenyl)amino)ethanone], the SI was 3050.
For `COc1cc(NC(C(=O)c2c[nH]c3cc(OC)c(OC(F)(F)F)cc23)c2ccc(F)cc2OCCO)cc(S(C)(=O)=O)c1` (racemic) [Compound 11, 2-(4-fluoro-2-(2-hydroxyethoxy)phenyl)-2-((3-methoxy-5-(methyl-sulfonyl)phenyl)amino)-1-(6-methoxy-5-(trifluoromethoxy)-1H-indol-3-yl)ethanone], the SI was 18400.
`COc1cc(NC(C(=O)c2c[nH]c3c(C)cc(OC(F)(F)F)cc23)c2ccc(F)cc2OCCO)cc(S(C)(=O)=O)c1` (racemic) [Compound 12, 2-(4-fluoro-2-(2-hydroxyethoxy)phenyl)-2-((3-methoxy-5-(methylsulfonyl)phenyl)amino)-1-(7-methyl-5-(trifluoromethoxy)-1H-indol-3-yl)ethanone] was tested, and the SI was 16900.
`COc1cc(NC(C(=O)c2c[nH]c3cc(F)ccc23)c2ccc(F)cc2OCCO)cc(S(C)(=O)=O)c1` (single isomer, unassigned) [Compound 1B, 1-(6-fluoro-1H-indol-3-yl)-2-(4-fluoro-2-(2-hydroxyethoxy)phenyl)-2-((3-methoxy-5-(methylsulfonyl)phenyl)amino)ethanone] was tested, and the SI was 149.
`COc1cc(NC(C(=O)c2c[nH]c3cc(Cl)ccc23)c2ccc(F)cc2OCCO)cc(S(C)(=O)=O)c1` (single isomer, unassigned) [Compound 2B, 1-(6-chloro-1H-indol-3-yl)-2-(4-fluoro-2-(2-hydroxyethoxy)phenyl)-2-((3-methoxy-5-(methylsulfonyl)phenyl)amino)-ethanone] gave an SI of 589.
`COc1cc(NC(C(=O)c2c[nH]c3c(C)c(F)ccc23)c2ccc(F)cc2OCCO)cc(S(C)(=O)=O)c1` (single isomer, unassigned) [Compound 3B, 2-(4-fluoro-2-(2-hydroxyethoxy)phenyl)-1-(6-fluoro-7-methyl-1H-indol-3-yl)-2-((3-methoxy-5-(methylsulfonyl)phenyl)amino)ethanone] showed an SI of 366.
For `COc1cc(NC(C(=O)c2c[nH]c3c(C)c(Cl)ccc23)c2ccc(F)cc2OCCO)cc(S(C)(=O)=O)c1` (single isomer, unassigned) [Compound 4A, 1-(6-chloro-7-methyl-1H-indol-3-yl)-2-(4-fluoro-2-(2-hydroxyethoxy)phenyl)-2-((3-methoxy-5-(methylsulfonyl)phenyl)amino)ethanone], the SI was 1020.
`COc1cc(NC(C(=O)c2c[nH]c3cc(F)c(F)cc23)c2ccc(F)cc2OCCO)cc(S(C)(=O)=O)c1` (single isomer, unassigned) [Compound 5B, 1-(5,6-difluoro-1H-indol-3-yl)-2-(4-fluoro-2-(2-hydroxyethoxy)phenyl)-2-((3-methoxy-5-(methylsulfonyl)phenyl)-amino)ethanone] gave an SI of 670.
`COc1cc(NC(C(=O)c2c[nH]c3cc(OC)c(C)cc23)c2ccc(F)cc2OCCO)cc(S(C)(=O)=O)c1` (single isomer, unassigned) [Compound 6B, 2-(4-fluoro-2-(2-hydroxyethoxy)phenyl)-2-((3-methoxy-5-(methylsulfonyl)phenyl)amino)-1-(6-methoxy-5-methyl-1H-indol-3-yl)ethanone] gave an SI of 80.
For `COc1cc(NC(C(=O)c2c[nH]c3cc(F)c(C)cc23)c2ccc(F)cc2OCCO)cc(S(C)(=O)=O)c1` (single isomer, unassigned) [Compound 7B, 2-(4-fluoro-2-(2-hydroxyethoxy)phenyl)-1-(6-fluoro-5-methyl-1H-indol-3-yl)-2-((3-methoxy-5-(methylsulfonyl)phenyl)amino)ethanone], the SI was 224.
For `COc1cc(NC(C(=O)c2c[nH]c3c(F)cc(C)cc23)c2ccc(F)cc2OCCO)cc(S(C)(=O)=O)c1` (single isomer, unassigned) [Compound 8B, 2-(4-fluoro-2-(2-hydroxyethoxy)phenyl)-1-(7-fluoro-5-methyl-1H-indol-3-yl)-2-((3-methoxy-5-(methylsulfonyl)phenyl)amino)ethanone], the SI was 170.
`COc1cc(NC(C(=O)c2c[nH]c3c(C)cc(Cl)cc23)c2ccc(F)cc2OCCO)cc(S(C)(=O)=O)c1` (single isomer, unassigned) [Compound 9B, 1-(5-chloro-7-methyl-1H-indol-3-yl)-2-(4-fluoro-2-(2-hydroxyethoxy)phenyl)-2-((3-methoxy-5-(methylsulfonyl)phenyl)amino)ethanone] showed an SI of 253.
In the case of `COc1cc(NC(C(=O)c2c[nH]c3ccc(OC(F)(F)F)cc23)c2ccc(F)cc2OCCO)cc(S(C)(=O)=O)c1` (single isomer, unassigned) [Compound 10A, 2-(4-fluoro-2-(2-hydroxyethoxy)phenyl)-2-((3-methoxy-5-(methylsulfonyl)phenyl)amino)-1-(5-(trifluoromethoxy)-1H-indol-3-yl)ethanone], the SI was 597.
Molecule `COc1cc(NC(C(=O)c2c[nH]c3cc(OC)c(OC(F)(F)F)cc23)c2ccc(F)cc2OCCO)cc(S(C)(=O)=O)c1` (single isomer, unassigned) [Compound 11A, 2-(4-fluoro-2-(2-hydroxyethoxy)phenyl)-2-((3-methoxy-5-(methyl-sulfonyl)phenyl)amino)-1-(6-methoxy-5-(trifluoromethoxy)-1H-indol-3-yl)ethanone] has an SI of 613.
Work on `COc1cc(NC(C(=O)c2c[nH]c3c(C)cc(OC(F)(F)F)cc23)c2ccc(F)cc2OCCO)cc(S(C)(=O)=O)c1` (single isomer, unassigned) [Compound 12B, 2-(4-fluoro-2-(2-hydroxyethoxy)phenyl)-2-((3-methoxy-5-(methylsulfonyl)phenyl)amino)-1-(7-methyl-5-(trifluoromethoxy)-1H-indol-3-yl)ethanone] yielded an SI of 8540.
